Source: publication PMC3274548, “Toward New Therapeutics for Skin and Soft Tissue Infections: Propargyl-Linked Antifolates Are Potent Inhibitors of MRSA and Streptococcus pyogenes” (PLoS ONE, 2012)

Legend:
[1] = test system: MRSA (S.aureus 13709); test: MIC, broth microdilution with Alamar Blue; type: cell-based, Staphylococcus aureus; conditions: IC50 (MCF10)/MIC (pathogen), both values in µM
[2] = test system: Streptococcus pyogenes; test: MIC, broth microdilution with Alamar Blue; type: cell-based; conditions: IC50 (MCF10)/MIC (pathogen), both values in µM
Procedure: Stock solutions of standard antibiotics and test compounds were made at 50 mM in DMSO. […] For susceptibility testing, 10 µL of glycerol stock was suspended in a 10 mL shake flask culture of chemically defined Isosensitest broth (Oxoid) supplemented with 2% w/v glucose. A sample of the shake flask culture was diluted to 1×10^6 cells/mL in media and added to 96-well test plates (100 µL per well) containing test compounds dispensed in DMSO (2 µL) using serial two-fold dilutions. After an incubation period (30°C) determined from the strain specific doubling time, a 0.03% w/v aqueous solution of resazurin (10 µL) was added and the plates were allowed to incubate; each well was then scored for dye reduction.

[3] = test system: Staphylococcus aureus subsp. aureus ATCC 44300; test: MIC and MBC determination (microdilution, plating on Isosensitest agar); type: cell-based; conditions: strain ATCC 44300
From the text: MBC was defined as the lowest concentration of inhibitor preventing colony growth on agar plates.

| SMILES | Selectivity MRSA [1] | Selectivity S. pyogenes [2] | Ratio MBC/MIC [3] |
| --- | --- | --- | --- |
| CCc1nc(N)nc(N)c1C#CCc1cc(OC)cc(-c2ccccc2)c1 [Compound 9] | 398 | 398 |  |
| COc1cc(-c2ccncc2)cc(C(C)C#Cc2c(C)nc(N)nc2N)c1 (centres unmarked) [Compound 24] |  |  | 1.0 |
| CCc1nc(N)nc(N)c1C#CCc1cccc(-c2ccccc2)c1 [Compound 8] | 16 | 16 |  |
